Measured data: PubChem BioAssay AID504761 (Drosophila RNAi Screening Center, 2011)
In all, the deposit lists about 22,000 reagents; below is an unselected part of those with a known target gene and a result. In the full data, 116 (0.52%) got an active call. 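Calls depend on retest data that are not deposited; infection was ranked per plate without normalising between plates; the unit of the infection score is not given.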 Raw values are not corrected between plates. A plus sign joins genes that one reagent is predicted to hit. Not given: the amount of reagent, the time to read-out.

Test: 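Insect host genes that dengue virus relies on to spread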 (primary screen)
Cell system: D.Mel-2 cells from Drosophila
Knock-down reagent: long dsRNA against Drosophila genes
Conditions: infection with dengue virus type 2; dose and infection time not stated
Read-out: 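Per well on two replicate plates, imaging gave the percent of cells positive for viral envelope protein, ranked by infection, and a nuclear count of cells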
Scale: infection score: higher = more virus-infected cells; cell count: higher = more cells in the well
Active means: 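Very low infection ranking in both replicate wells (chance probability at most 0.065), then a retest showing infection dropped 1.5-fold or more at p below 0.05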
Meaning of the calls: active = confirmed: knock-down lowers infection; inactive = not picked or not confirmed

| gene | amplicon | infection score, replicate 1 | infection score, replicate 2 | cell count, replicate 1 | cell count, replicate 2 | outcome |
| --- | --- | --- | --- | --- | --- | --- |
| CG30178 | DRSC21911 | 6.87 | 2.68 | 6316 | 5710 | inactive |
| CG31482 | DRSC12582 | 16.5 | 27.8 | 6565 | 4279 | inactive |
| lncRNA:CR31526 (long non-coding RNA:CR31526) | DRSC21520 | 1.8 | 2.33 | 6050 | 6062 | inactive |
| lncRNA:CR31526 (long non-coding RNA:CR31526) | DRSC26871 | 7.08 | 5.09 | 6289 | 6657 | inactive |
| CG31342 | DRSC15349 | 8.76 | 7.6 | 1609 | 4224 | inactive |
| CG31342 | DRSC16246 | 7.07 | 6.47 | 6135 | 7231 | inactive |
| NimC1 (Nimrod C1) | DRSC01879 | 3.4 | 5.85 | 6207 | 6072 | inactive |
| SP (Sex Peptide) | DRSC09664 | 0.33 | 3.14 | 6147 | 6999 | inactive |
| CG4390 | DRSC15572 | 4.99 | 2.3 | 6067 | 6474 | inactive |
| CG4390 | DRSC26410 | 0.71 | 13.2 | 6439 | 5392 | inactive |
| Sgs8 (Salivary gland secretion 8) | DRSC11282 | 1.67 | 2.4 | 5819 | 6032 | inactive |
| vilya | DRSC18588 | – | 4.52 | 419 | 6504 | inactive |
| Ugt36A1 + CG15418 | DRSC00432 | 1.36 | 1.28 | 6257 | 6495 | inactive |
| Ugt36A1 + CG15418 | DRSC24109 | 2.39 | 2.23 | 6114 | 6323 | inactive |
| CG14273 | DRSC02377 | 5.89 | 12.6 | 5856 | 5000 | inactive |
| CG14273 | DRSC27247 | 32.3 | 14.9 | 5741 | 6718 | inactive |
| Ugt35D1 (UDP-glycosyltransferase family 35 member D1) | DRSC15107 | 7.15 | 9.03 | 6293 | 6612 | inactive |
| d-cup (davis-cup) | DRSC14846 | 5.38 | 7.41 | 6195 | 6164 | inactive |
| CG13331 | DRSC06366 | 0.17 | 9.26 | 577 | 2236 | inactive |
| Rtnl1 (Reticulon-like1) | DRSC00851 | 1.5 | 1.21 | 6342 | 5549 | inactive |
| Rtnl1 (Reticulon-like1) | DRSC02684 | 2.9 | 1.53 | 5936 | 6284 | inactive |
| Rtnl1 (Reticulon-like1) | DRSC03122 | 2.06 | 1.2 | 5782 | 6241 | inactive |
| Rtnl1 (Reticulon-like1) | DRSC21698 | 2.56 | 2.67 | 6247 | 7036 | inactive |
| Drak (Death-associated protein kinase related) | DRSC19778 | – | 3.78 | 410 | 2436 | inactive |
| Drak (Death-associated protein kinase related) | DRSC23298 | 4.95 | 3.97 | 6286 | 6545 | inactive |
| Drak (Death-associated protein kinase related) | DRSC28871 | 1.46 | – | 893 | 457 | inactive |
| CG7299 | DRSC03043 | 2.87 | 3.35 | 6695 | 6860 | inactive |
| CG7299 | DRSC25553 | 6.62 | 6.55 | 7028 | 6092 | inactive |
| Atg12 (Autophagy-related 12) | DRSC09803 | 2.3 | 2.89 | 6447 | 6262 | inactive |
| Cyp301a1 (Cytochrome P450 301a1) | DRSC07365 | 11.6 | 5.8 | 4448 | 6798 | inactive |
| DIP-kappa (Dpr-interacting protein kappa) | DRSC01336 | 0.36 | 6.61 | 6194 | 5673 | inactive |
| DIP-kappa (Dpr-interacting protein kappa) | DRSC01337 | 5.23 | 5.57 | 3883 | 5192 | inactive |
| Gr59d (Gustatory receptor 59d) | DRSC22553 | 25 | 2.66 | 4787 | 6311 | inactive |
| Ras85D (Ras oncogene at 85D) | DRSC16814 | 1.66 | 7.3 | 6693 | 6784 | inactive |
| CG11109 | DRSC11633 | 2.83 | 1.83 | 6464 | 6950 | inactive |
| comm2 | DRSC10877 | 1.14 | 0.8 | 5807 | 6267 | inactive |
| CG3386 | DRSC08566 | 1.88 | 8.05 | 6393 | 5740 | inactive |
| CG3386 | DRSC28282 | 13.2 | 18 | 5540 | 5604 | inactive |
| RpL10 (Ribosomal protein L10) | DRSC11947 | 4.7 | 0.99 | 2085 | 606 | inactive |

Part of the list above, reformatted.
Rtnl1 (Reticulon-like1) [DRSC02684] → infection score, replicate 1: 2.9; infection score, replicate 2: 1.53; cell count, replicate 1: 5936; cell count, replicate 2: 6284; outcome: inactive
Rtnl1 (Reticulon-like1) [DRSC03122] → infection score, replicate 1: 2.06; infection score, replicate 2: 1.2; cell count, replicate 1: 5782; cell count, replicate 2: 6241; outcome: inactive
Rtnl1 (Reticulon-like1) [DRSC21698] → infection score, replicate 1: 2.56; infection score, replicate 2: 2.67; cell count, replicate 1: 6247; cell count, replicate 2: 7036; outcome: inactive
Drak (Death-associated protein kinase related) [DRSC19778] → infection score, replicate 2: 3.78; cell count, replicate 1: 410; cell count, replicate 2: 2436; outcome: inactive
